Results of unrelated studies side by side (data: NIAID ChemDB).

Shared fields: whole-cell or culture tests; species: Mycobacterium avium; measure: MIC

Neighbouring rows are from separate reports.

{"compound": "CC[C@H]1OC(=O)[C@H](C)[C@@H](O[C@H]2C[C@@](C)(OC)[C@@H](O)[C@H](C)O2)[C@H](C)[C@@H](O[C@@H]2O[C@H](C)C[C@H](N(C)C)[C@H]2O)[C@](C)(OC)C[C@@H](C)C(=O)[C@H](C)[C@@H](O)[C@]1(C)O", "strain": "3090", "value": "≤0.5 µg/mL"}
{"compound": "CC(C)(C)c1cnc(C(=O)/C=C/c2ccc(Cl)cc2)cn1", "read by": "absorbance", "strain": "Chester", "value": ">50 µg/mL"}
{"compound": "CC1CN(c2c(F)c(N)c3c(=O)c(C(=O)O)cn(C4CC4)c3c2F)CCN1C", "strain": "LR114R", "value": "0.06 µg/mL"}
{"compound": "CC(C)Cc1cnc(C(=O)/C=C/c2ccccc2Br)cn1", "read by": "absorbance", "strain": "Chester", "value": ">100 µg/mL"}
{"compound": "O=C(Nc1ccc(Br)cc1)c1cc(Cl)ccc1OP(=O)(Oc1ccccc1)c1ccccc1", "setting": "14 d", "strain": "MY330/88", "value": "16 µM"}
{"compound": "N[C@@H]1CONC1=O", "strain": "3090-C clarithromycin-resistant", "value": "16 µg/mL"}
{"compound": "CCCc1cnc(C(=O)/C=C/c2ccc(Cl)cc2)cn1", "read by": "absorbance", "strain": "Chester", "value": "12.5 µg/mL"}
{"compound": "O=C(Nc1ccc(C(F)(F)F)cc1)c1cc(Cl)ccc1OP(=O)(OCc1ccccc1)OCc1ccccc1", "setting": "7 d", "strain": "MY330/88", "value": "32 µM"}
{"compound": "CC(C)N=c1cc2n(-c3ccc(Cl)cc3)c3ccccc3nc-2cc1Nc1ccc(Cl)cc1", "strain": "3090", "value": "0.12 µg/mL"}
{"compound": "CC(C)(C)c1cnc(C(=O)/C=C/c2ccc(F)cc2)cn1", "read by": "absorbance", "strain": "Chester", "value": ">25 µg/mL"}
{"compound": "CC[C@@H](CO)NCCN[C@@H](CC)CO", "strain": "RG1", "value": "8 µg/mL"}
{"compound": "O=C(Nc1ccc(Br)cc1)c1cc(Cl)ccc1OP(=O)(c1ccccc1)c1ccccc1", "setting": "14 d", "strain": "MY330/88", "value": "16 µM"}
{"compound": "CC[C@H]1OC(=O)[C@H](C)[C@@H](O[C@H]2C[C@@](C)(OC)[C@@H](O)[C@H](C)O2)[C@H](C)[C@@H](O[C@@H]2O[C@H](C)C[C@H](N(C)C)[C@H]2O)[C@](C)(OC)C[C@@H](C)C(=O)[C@H](C)[C@@H](O)[C@]1(C)O", "read by": "broth dilution / radiometric", "setting": "pH 7.4", "strain": "3344", "value": "2 µg/mL"}
{"compound": "CCCCc1cnc(C(=O)/C=C/c2ccccc2Br)cn1", "read by": "absorbance", "strain": "Chester", "value": ">100 µg/mL"}
{"compound": "CO[C@H]1/C=C/O[C@@]2(C)Oc3c(C)c(O)c4c(O)c(c(/C=N/N5CCN(C)CC5)c(O)c4c3C2=O)NC(=O)/C(C)=C\\C=C\\[C@H](C)[C@H](O)[C@@H](C)[C@@H](O)[C@@H](C)[C@H](OC(C)=O)[C@@H]1C", "strain": "Isolate 90-1815", "value": "2.5 µg/mL"}
{"compound": "O=C(Nc1ccc(Cl)c(Cl)c1)c1cc(Cl)ccc1OP(=O)(Oc1ccccc1)Oc1ccccc1", "setting": "7 d", "strain": "MY330/88", "value": "16 µM"}
{"compound": "CC[C@H]1OC(=O)[C@H](C)[C@@H](O[C@H]2C[C@@](C)(OC)[C@@H](O)[C@H](C)O2)[C@H](C)[C@@H](O[C@@H]2O[C@H](C)C[C@H](N(C)C)[C@H]2O)[C@](C)(OC)C[C@@H](C)C(=O)[C@H](C)[C@@H](O)[C@]1(C)O", "strain": "SMT", "value": "2 µg/mL"}
{"compound": "CCCCCc1cnc(C(=O)/C=C/c2ccc(Br)cc2)cn1", "read by": "absorbance", "strain": "Chester", "value": ">50 µg/mL"}

2 of the rows above, restated:

compound | read by | setting | strain | value
O=C(Nc1ccc(Br)cc1)c1cc(Cl)ccc1OP(=O)(c1ccccc1)c1ccccc1 | - | 14 d | MY330/88 | 16 µM
CC1CN(c2c(F)c(N)c3c(=O)c(C(=O)O)cn(C4CC4)c3c2F)CCN1C | - | - | LR114R | 0.06 µg/mL

An empty or dashed field is not shown.